Measured values from several laboratories, pooled; numbers as filed in NIAID ChemDB.

Shared fields: tests on isolated targets; species: HIV-1; target: Reverse transcriptase; read-out: IC50

An empty or dashed field is not shown.

smiles | strain | changes | read by | value
CC(C)(C#Cc1ccc(NC(=O)CSc2nnnn2-c2ccc(C(C)(C)C)cc2Cl)c(Cl)c1)OCC(=O)N1CCOCC1 | - | RT-K103 Y181C | PicoGreen / fluorescence | <1 µM
CS(=O)(=O)Nc1cccc(CNC(=O)c2[nH]c3ccc(Cl)cc3c2S(=O)(=O)c2ccccc2)c1 | - | - | nucleotide incorporation | 0.003–0.035 µM
CC(C)c1ccccc1NC(=O)Cc1ccc(Oc2cc(C#N)cc(C#N)c2)c(Cl)c1 | - | - | nucleotide incorporation / radiometric | 100 µM
CCCN1c2ncccc2C(=O)N(C)c2ccc(-c3cn[nH]c3)nc21 | - | RT-Y188L | nucleotide incorporation / radiometric | <1 µM
COc1ccc(OC)c(C/C=C(\C)CC/C=C(\C)CC/C=C(\C)CC/C=C(\C)CC/C=C(\C)CCC=C(C)C)c1 | - | - | nucleotide incorporation | 23.5 µM
CCN1c2ncc(CCOc3ccc4cc(C(=O)NN)ccc4c3)cc2C(=O)N(C)c2cccnc21 | - | RT-K103N Y181C | nucleotide incorporation / radiometric | 0.1–1 µM
Cc1c(NC(=O)CSc2nnnn2-c2ccc(C3CC3)cc2Cl)ccc(C#CC(C)(C)NC(=O)c2cc[n+]([O-])cc2)c1F | WT | - | PicoGreen / fluorescence | <1 µM
CCN1c2ncc(CCOc3ccc(CCC(=O)O)c4ccccc34)cc2C(=O)Nc2c(C)cc(Cl)nc21 | WT | - | nucleotide incorporation / radiometric | <0.1 µM
O=C1c2cccc(O)c2C(=O)c2c(O)cc(CO)cc21 | - | - | RNase H / radiometric | 23 µM
COC(=O)/C=C(/C)c1ccc(NC(=O)CSc2nnnn2-c2ccc(C3CC3)cc2Cl)c(Cl)c1 | WT | - | PicoGreen / fluorescence | <1 µM
COC(=O)CSc1ccc(NC(=O)Cc2ccc(Oc3cc(C#N)cc(C#N)c3)c(Cl)c2)cc1 | - | - | nucleotide incorporation / radiometric | 100 µM
CC(=O)O[C@@H]([C@@H](C)[C@H](OC(C)=O)[C@H](C)/C=C/C=O)[C@H](C)[C@@H](OC(C)=O)[C@@H](C)/C=C/C=C(/C)C(=O)NC1=CC(=O)c2c(c(O)c(C)c3oc(C)cc23)C1=O | - | - | ELISA | >300 µM
CCOC(=O)C(=O)CC(=O)/C=C/c1cccn1Cc1ccccc1Cl | - | N474A | RNase H / radiometric | 90 µM
CCN1c2ncc(CCOc3cccc4c3CC(=O)N4)cc2C(=O)N(C)c2cccnc21 | IIIB | - | nucleotide incorporation / radiometric | 0.05–0.1 µM
CC(C)(C#Cc1ccc(NC(=O)CSc2nnnn2-c2ccc(C(C)(C)C)cc2Cl)c(Cl)c1)COC(N)=O | - | RT-K103 Y181C | PicoGreen / fluorescence | <1 µM
CCN1c2ncccc2C(=O)N(C)c2ccc(-c3cc[nH]c3C#N)nc21 | - | RT-Y188L | nucleotide incorporation / radiometric | <1 µM
COC(=O)C1CCN(CCOc2ccc(NC(=O)CSc3nnnn3-c3ccc(C(C)(C)C)cc3Cl)c(Cl)c2)CC1 | WT | - | PicoGreen / fluorescence | <1 µM
CCN1c2ncccc2C(=O)N(C)c2ccc(-c3c[nH]c(C(N)=O)c3)nc21 | - | RT-Y181C | nucleotide incorporation / radiometric | <1 µM
O=C(O)/C=C/c1ccc(N=Nc2c(S(=O)(=O)O)cc3cc(NC(=O)Nc4ccc5c(O)c(N=Nc6ccc(/C=C/C(=O)O)cc6)c(S(=O)(=O)O)cc5c4)ccc3c2O)cc1 | - | - | - | 0.025–0.1 µM
O=C(O)Cc1ccc(-c2ccc(NC(=O)CSc3nnnn3-c3ccc4ncsc4c3Cl)c(Cl)c2)cc1 | WT | - | PicoGreen / fluorescence | <1 µM
CCN1c2ncccc2C(=O)N(C)c2ccc(-c3ccn(C)c3)nc21 | - | RT-Y188L | nucleotide incorporation / radiometric | >1 µM
CC(C)(C#Cc1ccc(NC(=O)CSc2nnnn2-c2ccc(C3CC3)cc2Cl)c(Cl)c1)OCCNC1CC1 | - | RT-K103 Y181C | PicoGreen / fluorescence | <1 µM
Cc1cccc(NC(=O)Cc2ccc(Oc3cc(C#N)cc(C#N)c3)c(Cl)c2)c1C | - | - | nucleotide incorporation / radiometric | 100 µM
CCN1c2ncc(CCOc3ccc4c(c3)COC(=O)N4)cc2C(=O)N(C)c2cccnc21 | IIIB | RT-K103N Y181C | nucleotide incorporation / radiometric | >0.1 µM
Cc1ccccc1NC(=O)Cc1ccc(Oc2cc(C#N)cc(C#N)c2)c(Cl)c1 | - | - | nucleotide incorporation / radiometric | 100 µM
CCN1c2ncc(CCOc3cccc4c3CNC4=O)cc2C(=O)Nc2c(C)ccnc21 | IIIB | RT-K103N Y181C | nucleotide incorporation / radiometric | >0.1 µM
CC(C)(C)c1cc(Cl)c(-n2nnnc2SCC(=O)Nc2ccc(-c3ccc(OCC(=O)O)cc3)cc2Cl)c(Cl)c1 | - | RT-K103 Y181C | PicoGreen / fluorescence | <1 µM
CCN1c2ncc(CCOc3ccc4on(C)c(=O)c4c3)cc2C(=O)Nc2c(C)cc(F)nc21 | IIIB | - | nucleotide incorporation / radiometric | <0.05 µM
CCN1c2ncc(CCOc3ccc(C4CC4C(=O)O)c4ccccc34)cc2C(=O)N(C)c2ccc(F)nc21 | - | RT-K103N Y181C | nucleotide incorporation / radiometric | 0.1–1 µM
O=C(NCc1ccco1)c1[nH]c2ccc(Cl)cc2c1Sc1ccccc1 | - | - | nucleotide incorporation | 0.003–0.035 µM
CCN1c2ncc(CCOc3ccc(CCC(=O)O)c4ccccc34)cc2C(=O)Nc2c(C)cc(F)nc21 | - | RT-K103N Y181C | nucleotide incorporation / radiometric | 0.1–1 µM
CCN1c2ncc(CCOc3cccc4c3CNC(=O)N4CC(=O)O)cc2C(=O)N(C)c2cccnc21 | IIIB | - | nucleotide incorporation / radiometric | <0.05 µM
C/C(=C\c1ccc(NC(=O)CSc2nnnn2-c2ccc(C3CC3)cc2Cl)c(Cl)c1)C(=O)O | WT | - | PicoGreen / fluorescence | <1 µM
O=C(NC1CCC1)c1[nH]c2ccc(Cl)cc2c1S(=O)(=O)c1ccccc1 | - | - | nucleotide incorporation | 0.003–0.035 µM
CC(C)(C#Cc1ccc(NC(=O)CSc2nnnn2-c2cc(C(C)(C)C)cc(Br)c2Cl)c(Cl)c1)C(=O)O | WT | - | PicoGreen / fluorescence | <1 µM
CC(=O)COc1c(Br)c(O)c2c(c1Br)C(=O)C1C=C(C)C=C(O)C1C2=O | - | - | nucleotide incorporation | 17 µM
CCN1c2ncc(CCOc3cccc4c3CNC(=O)N4)cc2C(=O)N(C)c2cccnc21 | IIIB | - | nucleotide incorporation / radiometric | <0.05 µM
CCOC(=O)c1cc(-c2ccc3c(n2)N(CC)c2ncccc2C(=O)N3C)c[nH]1 | - | RT-Y188L | nucleotide incorporation / radiometric | >1 µM
CN(C)S(=O)(=O)c1ccc(NC(=O)Cc2ccc(Oc3cc(C#N)cc(C#N)c3)c(Cl)c2)cc1 | - | - | nucleotide incorporation / radiometric | 100 µM
CC(=O)COc1cc2c(c(O)c1Br)C(=O)C1C(O)=CC(C)=CC1C2=O | - | - | nucleotide incorporation | 22 µM
CN(CCc1cc[n+]([O-])cc1)C(=O)COc1ccc(NC(=O)CSc2nnnn2-c2ccc(C3CC3)cc2Cl)c(Cl)c1 | WT | - | PicoGreen / fluorescence | <1 µM
CCN1c2ncc(CCOc3cccc4c3CN(C)C(=O)N4C)cc2C(=O)N(C)c2cccnc21 | IIIB | RT-K103N Y181C | nucleotide incorporation / radiometric | >0.1 µM
O=C(CSc1nnnn1-c1cc(C(F)(F)F)ccc1Cl)Nc1ccc(-c2ccc(OCCN3CCCC3)cc2)c(F)c1Cl | - | RT-K103 Y181C | PicoGreen / fluorescence | <1 µM
COC(CC1O[C@H]([C@H](C)[C@@H](O)[C@@H](C)/C=C/C=C(/C)C(=O)NC2=CC(=O)c3c(c(O)c(C)c4oc(C)cc34)C2=O)[C@@H](C)[C@H](OC(C)=O)[C@@H]1C)OC | - | - | ELISA | >300 µM
CC(C)(C#Cc1ccc(NC(=O)CSc2nnnn2-c2ccc(C3CC3)cc2Cl)c(Cl)c1)C(=O)NCCN1CCCC1 | - | RT-K103 Y181C | PicoGreen / fluorescence | <1 µM
COC(/C=C/[C@@H](C)[C@@H](OC(C)=O)[C@H](C)[C@H](OC(C)=O)[C@H](C)[C@@H](OC(C)=O)[C@@H](C)/C=C/C=C(/C)C(=O)NC1=CC(=O)c2c(c(O)c(C)c3oc(C)cc23)C1=O)OC | - | - | ELISA | >300 µM
CC(C)(N)C#Cc1ccc(NC(=O)CSc2nnnn2-c2cc(C(C)(C)C)ccc2Cl)c(Cl)c1 | - | RT-K103 Y181C | PicoGreen / fluorescence | <1 µM
C#CC(O)/C=C/C/C=C/C=C/C=C/CC#CC(O)C#CC/C=C/C=C/C=C/CC(O)C#C | - | - | radiometric | 2.6 µM
COC(=O)c1ccc(-c2ccc(NC(=O)CSc3nnnn3-c3ccc(C)cc3Cl)c(Cl)c2)cc1 | - | RT-K103 Y181C | PicoGreen / fluorescence | <1 µM
N#Cc1cc(C#N)cc(Oc2ccc(CC(=O)Nc3ccc(S(=O)(=O)N4CCCCC4)cc3)cc2Cl)c1 | - | - | nucleotide incorporation / radiometric | 100 µM
CC(C)(C)c1ccc(-n2nnnc2SCC(=O)Nc2ccc(C(=O)Nc3cccc(C(=O)O)c3)cc2Cl)c(Cl)c1 | WT | - | PicoGreen / fluorescence | <1 µM
CCN1c2ncccc2C(=O)N(C)c2ccc(-c3cc[nH]c3C(C)=O)nc21 | - | RT-Y188L | nucleotide incorporation / radiometric | >1 µM
CC(C)(C#Cc1ccc(NC(=O)CSc2nnnn2-c2ccc(C(C)(C)C)cc2Cl)c(Cl)c1)OCC(=O)N1CCCC1 | WT | - | PicoGreen / fluorescence | <1 µM
COc1ccccc1NC(=O)Cc1ccc(Oc2cc(C#N)cc(C#N)c2)c(Cl)c1 | - | - | nucleotide incorporation / radiometric | 10 µM
CCN1c2ncccc2C(=O)N(C)c2ccc(-c3cnn(CC)c3)nc21 | - | RT-Y181C | nucleotide incorporation / radiometric | <1 µM
CC(C)(C#Cc1ccc(NC(=O)CSc2nnnn2-c2ccc(C3CC3)cc2Cl)c(Cl)c1)OCCN1CCCCC1 | - | RT-K103 Y181C | PicoGreen / fluorescence | <1 µM

Repeating the final 8 entries:

smiles,strain,changes,read by,value
COC(=O)c1ccc(-c2ccc(NC(=O)CSc3nnnn3-c3ccc(C)cc3Cl)c(Cl)c2)cc1,-,RT-K103 Y181C,PicoGreen / fluorescence,<1 µM
N#Cc1cc(C#N)cc(Oc2ccc(CC(=O)Nc3ccc(S(=O)(=O)N4CCCCC4)cc3)cc2Cl)c1,-,-,nucleotide incorporation / radiometric,100 µM
CC(C)(C)c1ccc(-n2nnnc2SCC(=O)Nc2ccc(C(=O)Nc3cccc(C(=O)O)c3)cc2Cl)c(Cl)c1,WT,-,PicoGreen / fluorescence,<1 µM
CCN1c2ncccc2C(=O)N(C)c2ccc(-c3cc[nH]c3C(C)=O)nc21,-,RT-Y188L,nucleotide incorporation / radiometric,>1 µM
CC(C)(C#Cc1ccc(NC(=O)CSc2nnnn2-c2ccc(C(C)(C)C)cc2Cl)c(Cl)c1)OCC(=O)N1CCCC1,WT,-,PicoGreen / fluorescence,<1 µM
COc1ccccc1NC(=O)Cc1ccc(Oc2cc(C#N)cc(C#N)c2)c(Cl)c1,-,-,nucleotide incorporation / radiometric,10 µM
CCN1c2ncccc2C(=O)N(C)c2ccc(-c3cnn(CC)c3)nc21,-,RT-Y181C,nucleotide incorporation / radiometric,<1 µM
CC(C)(C#Cc1ccc(NC(=O)CSc2nnnn2-c2ccc(C3CC3)cc2Cl)c(Cl)c1)OCCN1CCCCC1,-,RT-K103 Y181C,PicoGreen / fluorescence,<1 µM

a–b is a range or a potency band. Neighbouring rows are from separate reports. ICn is the concentration giving n% inhibition.